Anti-infective test results gathered from many reports (values: NIAID ChemDB through PubChem).

All rows: growth or infection tests; agent: HIV-1; cells: CEM + CEM-SS; measure: EC50

An empty or dashed field is not shown. Rows are shuffled and stem from different studies. ECn is the concentration giving n% inhibition of infection, replication or growth.

SMILES	strain or isolate	mutations	read by	result
Cc1cn([C@H]2C=C[C@@H](CO)O2)c(=O)[nH]c1=O	-	-	-	0.049 µM
Cc1ccnc(NS(=O)(=O)c2ccc(N=Nc3cc4ccccc4c(C(=O)O)c3O)cc2)n1	RF	-	cytopathic effect / XTT	>10 µM
CSC[C@H](NC(=O)COc1cccc(Nc2ccccc2)c1)C(=O)N[C@@H](Cc1ccccc1)[C@H](O)C(=O)N1CSC(C)(C)[C@H]1C(=O)NC(C)(C)C	IIIB	-	cytopathic effect / XTT	0.0068 µM
Cc1cn([C@H]2C[C@H](N=[N+]=[N-])[C@@H](CO)O2)c(=O)[nH]c1=O	NL4-3	RT-K103N	cytopathic effect / XTT	0.16 µM
O=C(CNC(=O)C(=O)/C=C(\O)c1cccn1Cc1ccc(F)cc1)OC[C@@H]1CC[C@H](n2ccc(=O)[nH]c2=O)O1	LAI	-	RT activity	>10 µM
Cc1occc1C(=S)Nc1ccc(Cl)c(/C=N/OC(C)(C)C)c1	SK1	-	cytopathic effect / XTT	0.1 µM
COc1ccc(NC(=O)C/C(C)=N/N=C(N)N)c([N+](=O)[O-])c1	RF	-	cytopathic effect / XTT	>100 µM
COC(=O)N[C@H](C(=O)N[C@@H](Cc1ccccc1)[C@@H](O)CN(Cc1ccc(-c2ccccn2)cc1)NC(=O)[C@@H](NC(=O)OC)C(C)(C)C)C(C)(C)C	RF	-	RT activity	0.00485 µM
Nc1nc2c(ncn2[C@H]2C[C@]23C[C@@H]3CO)c(=O)[nH]1	-	-	-	>100 µM
Cc1cccc(C)c1OCC(=O)N[C@@H](Cc1ccccc1)[C@H](O)C(=O)N1CSC(C)(C)[C@H]1C(=O)NC(C)(C)C	IIIB	-	cytopathic effect	>0.2 µM
CCOP(=O)(OCC)OC[C@@H]1C=C[C@H](n2cc(C)c(=O)[nH]c2=O)O1	-	-	cytopathic effect	3.5 µM
COC(=O)[C@H](C)NP(=O)(OC[C@@H]1C[C@]12C[C@@H]2n1cnc2c(N)ncnc21)Oc1ccccc1	-	-	-	3.5 µM
CC[C@H](NC(=O)COc1cccc2cnccc12)C(=O)N[C@@H](Cc1ccccc1)[C@H](O)C(=O)N1CSC[C@H]1C(=O)NC(C)(C)C	IIIB	-	cytopathic effect / XTT	0.102 µM
C[C@H](CCC(=O)Nc1ccc(S(=O)(=O)c2ccc(NC(=O)CC[C@@H](C)[C@H]3CC[C@H]4[C@@H]5CC[C@H]6C[C@@H](O)CC[C@]6(C)[C@H]5CC(O)[C@]34C)cc2)cc1)[C@H]1CC[C@H]2[C@@H]3CC[C@H]4C[C@@H](O)CC[C@]4(C)[C@H]3CC(O)[C@]12C	RF	-	XTT	>100 µg/mL
COC(=O)CCC/C=C(\c1cc(C)c(OC)c(C(=O)OC)c1)c1cc(Cl)c(OC)c(C(=O)OC)c1	RF	-	-	0.02 µM
Cc1ccnc2c1NC(=O)c1cccnc1N2C1CC1	NL4-3	RT-V108I	cytopathic effect / XTT	0.06 µM
O=c1[nH]cc(N=Nc2ccc(S(=O)(=O)Nc3nccs3)cc2)cc1O	RF	-	cytopathic effect / XTT	192 µM
Nc1nc2c(ncn2[C@H]2C[C@@]23C[C@H]3CO)c(=O)[nH]1	-	-	-	>100 µM
O=C(O)/C=C/c1ccc[c]([Sb](=[O])([OH])[OH])c1	RF	-	cytopathic effect	0.94 µM
CC(C)c1nc(CN(C)C(=O)N[C@H](C(=O)N[C@@H](Cc2ccccc2)C[C@H](O)[C@H](Cc2ccccc2)NC(=O)OCc2cncs2)C(C)C)cs1	RF	-	RT activity	0.0355 µM
Cc1cn([C@H]2C[C@H](N=[N+]=[N-])[C@@H](CO)O2)c(=O)[nH]c1=O	-	-	cytopathic effect	0.004 µM
O=S(=O)(c1ccc(Cl)c(Cl)c1)c1ccc(Cl)c(Cl)c1	RF	-	XTT	>100 µg/mL
CSC[C@H](NC(=O)COc1cccc2cnccc12)C(=O)N[C@@H](Cc1ccccc1)[C@H](O)C(=O)N1CSC(C)(C)[C@H]1C(=O)NC(C)(C)C	IIIB	-	cytopathic effect / XTT	0.0057 µM
Cc1cn([C@H]2C=C[C@@H](COP(=O)(O)O)O2)c(=O)[nH]c1=O	-	-	-	0.73 µM
COC(=O)CCC/C=C(/c1ccc(OC)c(C(C)=O)c1)c1ccc(OC)c(C(=O)OC)c1	RF	-	-	0.47 µM
CC(C)CN(C[C@@H](O)[C@H](Cc1ccccc1)NC(=O)O[C@H]1CCOC1)S(=O)(=O)c1ccc(N)cc1	RF	-	RT activity	0.0166 µM
CC(C)CCCCCCCCCCCSCNc1ccc(S(=O)(=O)c2ccc(NCSCCCCCCCCCCCC(C)C)cc2)cc1	RF	-	XTT	>100 µg/mL
Nc1nc2c(ncn2[C@H]2C[C@@]23C[C@@H]3CO)c(=O)[nH]1	RF	-	-	>100 µM
CC(=O)C(N=Nc1ccc(S(=O)(=O)Nc2ccccn2)cc1)C(=O)Nc1ccccc1C	RF	-	cytopathic effect / XTT	>4.5 µM
Cc1cn([C@H]2C=C[C@@H](COP(=O)(SCCOC(=O)C(C)(C)C)SCCOC(=O)C(C)(C)C)O2)c(=O)[nH]c1=O	-	-	-	0.0044 µM
CC(C)CCC[C@@H](C)[C@H]1CC[C@H]2[C@@H]3CC[C@H]4C[C@@H](CCC=C(c5cc(Cl)c(O)c(C(=O)O)c5)c5cc(Cl)c(O)c(C(=O)O)c5)CC[C@]4(C)[C@H]3CC[C@]12C	RF	-	p24 / RT activity	5.1 µM
CC(C)[C@H](NC(=O)COc1cccc(N(C)C)c1)C(=O)N[C@@H](Cc1ccccc1)[C@H](O)C(=O)N1CSC(C)(C)[C@H]1C(=O)NC(C)(C)C	IIIB	-	cytopathic effect / XTT	0.015 µM
CC(C)C[C@H](NC(=O)[C@@H](N)[C@@H](C)O)C(=O)N[C@@H](CC(N)=O)C(=O)N[C@@H](Cc1ccccc1)B(O)O	RF	-	cytopathic effect / XTT	>102 µM
CN(C)[C@@H]1C(=O)C(C(N)=O)=C(O)[C@@]2(O)C(=O)C3=C(O)c4c(O)cccc4[C@@](C)(O)[C@H]3[C@H](O)[C@@H]12	RF	-	cytopathic effect / XTT	>64 µM
Cc1ccnc2c1NC(=O)c1cccnc1N2C1CC1	Isolate NL4-3	-	cytopathic effect / XTT	0.02 µM
CC(C)(C)C(=O)OCCSP(=O)(OC[C@@H]1C=C[C@H](n2cnc3c(N)ncnc32)O1)SCCOC(=O)C(C)(C)C	-	-	-	0.00012 µM

4 of the rows above, restated:

SMILES	strain or isolate	mutations	read by	result
Cc1cccc(C)c1OCC(=O)N[C@@H](Cc1ccccc1)[C@H](O)C(=O)N1CSC(C)(C)[C@H]1C(=O)NC(C)(C)C	IIIB	-	cytopathic effect	>0.2 µM
CC(=O)C(N=Nc1ccc(S(=O)(=O)Nc2ccccn2)cc1)C(=O)Nc1ccccc1C	RF	-	cytopathic effect / XTT	>4.5 µM
CC(C)CN(C[C@@H](O)[C@H](Cc1ccccc1)NC(=O)O[C@H]1CCOC1)S(=O)(=O)c1ccc(N)cc1	RF	-	RT activity	0.0166 µM
O=c1[nH]cc(N=Nc2ccc(S(=O)(=O)Nc3nccs3)cc2)cc1O	RF	-	cytopathic effect / XTT	192 µM